Source: publication PMC8092843 (Journal of Virology, 2021)

Target: HLA-A*02:01 molecule (UniProt P01899+P04439, D140Y/D185E/D98H/E176V/G131W/I119V/I121R/I166T/N151K/N90K/Q86G/Q94H/R138H/R169H)
Experiment: cell-based
Format: binding, human
Details: SD

Structure (SMILES) | EC50
CC(C)C[C@H](NC(=O)[C@H](CO)NC(=O)[C@@H]1CCCN1C(=O)[C@H](CC(C)C)NC(=O)[C@H](CC(C)C)NC(=O)[C@@H](N)Cc1ccccc1)C(=O)N[C@@H](C)C(=O)N[C@H](C(=O)N[C@H](C(=O)O)C(C)C)[C@@H](C)O | 15 ± 4.4 µM
CC(C)C[C@H](NC(=O)[C@@H](NC(=O)[C@@H](NC(=O)[C@@H](NC(=O)[C@H](Cc1ccccc1)NC(=O)[C@H](CCCNC(=N)N)NC(=O)[C@H](CC(N)=O)NC(=O)[C@H](CC(C)C)NC(=O)[C@@H](N)Cc1ccccc1)[C@@H](C)O)[C@@H](C)O)[C@@H](C)O)C(=O)O | 79 ± 9.6 µM
CC(C)C[C@H](NC(=O)[C@H](Cc1c[nH]c2ccccc12)NC(=O)[C@H](C)NC(=O)[C@H](CC(C)C)NC(=O)[C@@H](N)C(C)C)C(=O)N[C@@H](Cc1ccc(O)cc1)C(=O)N[C@@H](C)C(=O)N[C@@H](C)C(=O)N[C@H](C(=O)O)C(C)C [pp1a-3467] | 45 ± 10.8 µM
